From patent publication US20170217976A1, “6-(AMINO ACID)-MORPHINAN DERIVATIVES IN COMBINATION WITH PERMEATION […] FOR USE AS AN ORALLY, […], TRA[…] NASALLY AD[…]” (C[…], priority 2014, published 2017)

The chains behind the UniProt entries cited, without tags or fusion partners.
UniProt P41144, whole entry: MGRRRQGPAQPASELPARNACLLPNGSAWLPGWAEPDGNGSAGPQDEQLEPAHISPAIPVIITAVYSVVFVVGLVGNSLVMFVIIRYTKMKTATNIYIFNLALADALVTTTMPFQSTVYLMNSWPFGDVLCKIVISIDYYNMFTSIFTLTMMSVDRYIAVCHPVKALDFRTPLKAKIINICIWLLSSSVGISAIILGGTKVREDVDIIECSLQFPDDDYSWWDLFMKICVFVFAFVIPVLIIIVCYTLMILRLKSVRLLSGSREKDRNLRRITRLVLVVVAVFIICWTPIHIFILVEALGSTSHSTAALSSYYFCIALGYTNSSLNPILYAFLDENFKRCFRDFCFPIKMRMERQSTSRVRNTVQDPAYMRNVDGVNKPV

Biological target: T1, KOR (Cavia porcellus, UniProt P41144)
T1 construct: from tissue
Experiment: Opioid receptor binding, KOR, guinea pig brain membranes

`CO[C@@]12CCC(=O)[C@@H]3Oc4c(O)ccc5c4[C@@]31CCN(C)[C@@H]2C5` [Compound 14-OMO, 14-O-methyloxymorphone, reference compound] was tested. Which Ki (Table 1-4, guinea pig brain membranes, read-out: Binding Ki KOR) did it give?
The Ki was 10.2 nM.

What about the Ki (in vitro binding assay, guinea pig brain membranes, read-out: Binding Ki (nM) KOR) of the same molecule?
Its Ki is 10.2 nM.

Read-outs that look alike come from different tables or passages of the source.
